Measured values as given in patent publication US20200283532A1, “TUMOUR-TARGETING PEPTIDE VARIANTS” (Cancer Research Technology Limited, priority 2017, published 2020).

Target: integrin αvβ6 (UniProt P06756)

Row | Substance | Affinity (mean activity relative to biotinylated A20FMDV2, 100 nM) (relative to biotinylated A20FMDV2)
1 | Peptide (24) DTPA-NK(Biotin)…-NH2 | 1.19
2 | Peptide (26) DTPA-nK(Biotin)…t-OH | 1.19
3 | Peptide (25) DTPA-nK(Biotin)…-OH | 1.36
4 | Peptide (19) […] | 1.43
5 | Peptide (17) […]2 | 1.23
6 | Peptide (16) AcHN-NK(Biotin)…-OH | 1.48
7 | Peptide (22) DTPA-NK(Biotin)…-OH | 1.01
8 | Peptide (23) DTPA-GNK(Biotin)…-OH | 1.28
9 | Peptide (21) […] | 1.57
10 | Peptide (18) AcHN-NK(Biotin)…-NH2 | 1.25
11 | Peptide (20) […] | 0.53
